Anti-infective test results gathered from many reports (values: NIAID ChemDB through PubChem).

Common to all: whole-cell or culture tests; organism: Mycobacterium fortuitum; endpoint: MIC

Rows are shuffled and stem from different studies. Two numbers with a dash give a range or band. Blank or dashed fields: not listed here.

smiles	strain or isolate	value
C=CCn1c(-c2ccc(N=N/C(C(=O)OCC)=C(/C)O)cc2)n[nH]c1=S	ATCC 6841	128 µg/mL
CCn1cc(C(=O)O)c(=O)c2ccc(-c3nc(-c4ccccc4)cs3)cc21	-	1.6 µg/mL
Cc1c(CN2CCN(C)CC2)cc(-c2ccc(Cl)cc2)n1-c1ccc(Cl)cc1	8 strains	3.1–12.5 µg/mL
CCOC(=O)/C(N=Nc1ccc(-c2n[nH]c(=O)n2-c2ccccc2)cc1)=C(\C)O	ATCC 6841	32 µg/mL
C[C@@H]1CN(c2c(F)c(N)c3c(=O)c(C(=O)O)cn(C4CC4)c3c2F)C[C@H](C)N1	ATCC 6841	0.5 µg/mL
CO[C@@]1(NC(=O)Cn2cnnn2)C(=O)N2C(C(=O)O)=C(CSc3nnc(C)s3)CSC21	1059	100 µg/mL
C[C@H]1COc2c(N3CCN(C)CC3)c(F)cc3c(=O)c(C(=O)O)cn1c23	ATCC 6841	4 µg/mL
CCCCCCSc1ccnc(C(N)=S)c1	1021	125 µM
COc1cc2c(cc1O)CCc1cc(O)cc(OC)c1-2	-	25 µg/mL
Nc1ccc(-c2n[nH]c(=O)n2-c2ccccc2)cc1	ATCC 6841	64 µg/mL
N/C(=N\N=C\c1ccccc1Sc1ccc(Cl)cc1)c1ccccn1	NCTC 10394	12.5–25 µg/mL
COc1cc(OC)c2c(ccc3c(O)c(O)c(O)cc32)c1	-	25 µg/mL
CCOC1Oc2ccccc2C(=O)/C1=C\Nc1ccc(C(=O)O)c(O)c1	1021	>100 µg/mL
N/C(=N\N=C\c1cccc2ccccc12)c1ccccn1	NCTC 10394	12.5–25 µg/mL
CCCCSc1ccnc(C(N)=S)c1	1021	250 µM
C[C@@H]1CN(c2c(F)c(N)c3c(=O)c(C(=O)O)cn(C4CC4)c3c2F)C[C@H](C)N1	2 isolates	0.3 µg/mL
CO[C@@]1(NC(=O)Cc2cccs2)C(=O)N2C(C(=O)O)=C(COC(N)=O)CS[C@@H]21	1045	50 µg/mL
CC(C)CNc1nc(C(N)=S)cnc1C(N)=O	1021	>100 µg/mL
N#Cc1cnc(C(N)=O)c(Nc2cc(C(F)(F)F)cc(C(F)(F)F)c2)n1	1021	>100 µg/mL
CCn1cc(C(=O)O)c(=O)c2cc(F)c(-c3nc(C)c(C)s3)cc21	-	6.25 µg/mL
CCOC1Oc2ccccc2C(=O)/C1=C\Nc1ccc(O)c(C(=O)O)c1	1021	>100 µg/mL
CCn1cc(C(=O)O)c(=O)c2ccc(-c3nc(C)cs3)cc21	-	25 µg/mL
CCn1cc(C(=O)O)c(=O)c2ccc(-c3csc(C)n3)cc21	-	3.12 µg/mL
CCc1cc(C(N)=S)ccn1	ATCC 6841	>250 µg/mL
CCCCCCCCCCCCSc1ccnc(C(N)=S)c1	1021	2000 µM
CCn1cc(C(=O)O)c(=O)c2ccc(C3CSCN3C)cc21	-	>100 µg/mL
C[C@@H](O)[C@H]1C(=O)N2C(C(=O)O)=C(SCCN=CN)C[C@H]12	1045	25 µg/mL
NC(=O)c1ncc(C(N)=S)nc1N1CCOCC1	1021	>100 µg/mL
N#Cc1cnc(C(N)=O)c(Nc2cccc(Br)c2)n1	1021	>100 µg/mL
CC(C)(C)Sc1ccccc1/C=N/N=C(\N)c1ccccn1	NCTC 10394	>128 µg/mL
C[C@@H]1CN(c2c(F)c(N)c3c(=O)c(C(=O)O)cn(C4CC4)c3c2F)C[C@H](C)N1	NCTC 10394	0.25 µg/mL
N#Cc1ccc(/C=N/N=C(\N)c2ccccn2)cc1	-	256 µg/mL
CCCCCCCSc1ccnc(C(N)=S)c1	1021	125 µM
N/C(=N\N=C\c1ccc(-c2ccccc2)cc1)c1cnccn1	NCTC 10394	>64 µg/mL
NC1CCN(c2c(F)cc3c(=O)c(C(=O)O)cn(C4CC4)c3c2Cl)C1	ATCC 6841	0.5 µg/mL
CCOC1Oc2ccc(C)cc2C(=O)/C1=C\Nc1ccc(C(=O)O)c(O)c1	1021	>100 µg/mL
CCn1cc(C(=O)O)c(=O)c2cc(F)c(-c3csc(N4CCCCC4)n3)cc21	-	3.12 µg/mL
Cc1ccc(/C=N/N=C(/N)c2ccccn2)c(C)c1	-	128 µg/mL
CC1COc2c(N3CCN(C)CC3)c(F)cc3c(=O)c(C(=O)O)cn1c23	ATCC 6841	4 µg/mL
CCOC(=O)/C(N=Nc1ccc(-c2n[nH]c(=S)o2)cc1)=C(\C)O	ATCC 6841	64 µg/mL
N/C(=N/N=C/c1cccc(F)c1)c1ccccn1	-	256 µg/mL
CCC(C)(C)c1ccc(/C=N/N=C(\N)c2ccc3ccccc3n2)cc1	NCTC 10394	8–16 µg/mL
CCn1cc(C(=O)O)c(=O)c2cc(F)c(-c3csc(C)n3)cc21	-	25 µg/mL
COc1cccc(/C=N/N=C(\N)c2ccccn2)c1OCc1ccccc1	NCTC 10394	16–32 µg/mL
CCn1cc(C(=O)O)c(=O)c2cc(Cl)c(-c3nc(C)cs3)cc21	-	12.5 µg/mL
CO[C@@]1(NC(=O)C2SC(=C(C(N)=O)C(=O)[O-])S2)C(=O)N2C(C(=O)[O-])=C(CSc3nnnn3C)CS[C@@H]21	1260	25 µg/mL
CCC(C)(C)c1ccc(/C=N/N=C(\N)c2ccccn2)cc1	-	8–10 µg/mL
COc1cc2c(ccc3cc(OC)c(O)c(OC)c32)cc1O	-	100 µg/mL
COC(=O)/C=C/C(=O)c1ccc(C(C)(C)C)cc1	-	4 µg/mL
NC[C@@H]1O[C@H](O[C@H]2[C@@H](O)[C@H](O[C@@H]3[C@@H](O)[C@H](N)C[C@H](N)[C@H]3O[C@H]3O[C@H](CN)[C@@H](O)[C@H](O)[C@H]3N)O[C@@H]2CO)[C@H](N)[C@@H](O)[C@@H]1O	ATCC 6841	16 µg/mL
CCn1cc(C(=O)O)c(=O)c2cc(F)c(C3CSCN3C)cc21	-	>100 µg/mL
N#Cc1cnc(C(N)=O)c(Nc2cccc(O)c2)n1	1021	>100 µg/mL
CN[C@@H]1[C@H](O[C@H]2[C@H](O[C@H]3[C@H](O)[C@@H](O)[C@H](N=C(N)N)[C@@H](O)[C@@H]3N=C(N)N)O[C@@H](C)[C@]2(O)C=O)O[C@@H](CO)[C@H](O)[C@H]1O	ATCC 6841	>64 µg/mL
Cc1ccc(Nc2nc(C#N)cnc2C(N)=O)cc1[N+](=O)[O-]	1021	>100 µg/mL
CCOC1Oc2ccc([N+](=O)[O-])cc2C(=O)/C1=C\Nc1ccc(C(=O)O)c(O)c1	1021	>100 µg/mL
N#Cc1cnc(C(N)=O)c(Nc2ccc(Cl)cc2)n1	1021	>100 µg/mL
CCC1Cn2cc([N+](=O)[O-])nc2O1	1 isolates	>250 µg/mL
COc1cccc(/C=N/N=C(\N)c2ccccn2)c1OC	-	256 µg/mL
CCCN(CCC)c1nc(C(N)=S)cnc1C(N)=O	1021	>100 µg/mL
CCn1cc(C(=O)O)c(=O)c2ccc(C3CSC(C)N3C)cc21	-	>100 µg/mL
C[C@@H]1CN(c2c(F)c(N)c3c(=O)c(C(=O)O)cn(C4CC4)c3c2F)C[C@H](C)N1	ATCC 6841	0.3 µg/mL
COc1cc(CCc2ccc(O)cc2)cc(OC)c1OC	-	100 µg/mL
NC(=O)c1ncc(C(N)=S)nc1Nc1ccc(O)cc1	1021	100 µg/mL

The first 6 rows once more:

smiles	strain or isolate	value
C=CCn1c(-c2ccc(N=N/C(C(=O)OCC)=C(/C)O)cc2)n[nH]c1=S	ATCC 6841	128 µg/mL
CCn1cc(C(=O)O)c(=O)c2ccc(-c3nc(-c4ccccc4)cs3)cc21	-	1.6 µg/mL
Cc1c(CN2CCN(C)CC2)cc(-c2ccc(Cl)cc2)n1-c1ccc(Cl)cc1	8 strains	3.1–12.5 µg/mL
CCOC(=O)/C(N=Nc1ccc(-c2n[nH]c(=O)n2-c2ccccc2)cc1)=C(\C)O	ATCC 6841	32 µg/mL
C[C@@H]1CN(c2c(F)c(N)c3c(=O)c(C(=O)O)cn(C4CC4)c3c2F)C[C@H](C)N1	ATCC 6841	0.5 µg/mL
CO[C@@]1(NC(=O)Cn2cnnn2)C(=O)N2C(C(=O)O)=C(CSc3nnc(C)s3)CSC21	1059	100 µg/mL